A mixed list of measured activities; the numbers were collected in NIAID ChemDB.

Shared fields: tests in culture; species: Coxsackie virus; method: cytopathic effect; measure: EC50

An empty or dashed field is not shown. Two numbers with a dash give a range or band. ECn: concentration that inhibits the pathogen or its effect by n%. Rows are shuffled and stem from different studies.

structure,cells,strain,value
CC1(CO)CCC(Cn2nnc3c(N)nc(N)nc32)C1(C)C,HeLa,TYPE B4,300 µg/mL
C=C(N=CC)c1nc(-c2cccc(C)c2)n([C@@H]2O[C@H](CO)[C@@H](O)[C@H]2O)n1,HeLa,TYPE B4,>200 µg/mL
Nc1ncnc2c1ncn2C[C@H](O)CO,VERO,Strain B4,>400 µg/mL
Cc1cc(OCCCc2ccc(Cl)nn2)cc(C)c1-c1noc(C(F)(F)F)n1,HeLa,-,0.033–0.659 µg/mL
OC[C@H]1O[C@H](c2cncc(Br)c2)[C@@H](O)[C@@H]1O,VERO,TYPE B4,≥100 µg/mL
CC1(C)[C@@H](CCO)C[C@H]1n1nnc2c(=O)[nH]cnc21,VERO,TYPE B4,>100 µg/mL
Cc1cc(OCCCc2ccc(C(F)(F)F)nn2)cc(C)c1-c1noc(C(F)F)n1,HeLa,-,0.033–0.659 µg/mL
Nc1ncnc2c1ncn2[C@@H]1O[C@H](C=NO)[C@@H](O)[C@H]1O,HeLa,B4,>40 µg/mL
OC[C@H]1O[C@H](c2cncc(Br)c2)[C@@H](O)[C@H]1O,HeLa,TYPE B4,≥100 µg/mL
Cc1nc(Cl)c([N+](=O)[O-])c(N2CC[N+]3(CC2)CC[N+]2(CCN(c4nc(C)nc(Cl)c4[N+](=O)[O-])CC2)CC3)n1,HeLa,B3,>70 µg/mL
CC1(C)[C@@H](CO)CC[C@@]1(C)Cn1cc(I)c(=O)[nH]c1=O,HeLa,TYPE B4,>400 µg/mL
OCCOCn1c(CCc2ccccn2)nc2ccccc21,HEL,B4,>100 µg/mL
C=C(N=CC)c1nc(-c2ccc(C)cc2)n([C@@H]2O[C@H](CO)[C@@H](O)[C@H]2O)n1,HeLa,TYPE B4,>40 µg/mL
N#Cc1cncc([C@H]2O[C@H](CO)[C@@H](O)[C@@H]2O)c1,VERO,TYPE B4,≥100 µg/mL
NN1CC[N+]2(CC1)CC[N+]1(CCN(N)CC1)CC2,HeLa,B3,>70 µg/mL
OC[C@H]1O[C@@H](n2c(CCc3ccccn3)nc3cc(Cl)c(Cl)cc32)[C@H](O)[C@@H]1O,HEL,B4,>100 µg/mL
CC=NC(=N)c1nc(-c2ccccc2)n(Cc2ccccc2)n1,HeLa,TYPE B4,>10 µg/mL
CC1(C)[C@@H](CCO)C[C@H]1n1nnc2c(N)ncnc21,VERO,TYPE B4,>100 µg/mL
Nc1nc(Cl)c2ncn([C@H]3CO[C@@H](CO)C3)c2n1,HeLa,TYPE B4,>200 µg/mL
N#C/C(=C(\N)N1CC[N+]2(CC1)CC[N+]1(CCN(/C(N)=C(/C#N)[N+](=O)[O-])CC1)CC2)[N+](=O)[O-],HeLa,B3,>70 µg/mL
Cc1cc(OCCCc2ccc(Br)nn2)cc(C)c1-c1noc(C(F)F)n1,HeLa,-,0.033–0.659 µg/mL
OCCOCn1c(SCc2ccccn2)nc2cc(Cl)c(Cl)cc21,HEL,B4,>50 µg/mL
CCc1ccc(CCCOc2ccc(-c3noc(C(F)F)n3)cc2)nn1,HeLa,-,0.033–0.659 µg/mL
Nc1ncnc2c1ncn2[C@@H]1C=C(CF)[C@H](O)[C@H]1O,VERO,TYPE B4,>200 µg/mL
CC1(C)[C@@H](CCO)C[C@H]1n1cnc2c(=O)[nH]cnc21,HeLa,TYPE B4,>400 µg/mL
COCC1=C[C@@H](n2cnc3c(N)ncnc32)[C@H](O)[C@@H]1O,HeLa,TYPE B4,>200 µg/mL
Nc1nc2c(ncn2[C@H]2CO[C@@H](CO)C2)c(=O)[nH]1,VERO,TYPE B4,>400 µg/mL
CC1(C)[C@@H](CO)CC[C@@]1(C)Cn1cnc2c(Cl)ncnc21,VERO,TYPE B4,>400 µg/mL
NC(=O)c1cncc([C@@H]2O[C@H](CO)[C@@H](O)[C@@H]2O)c1,VERO,TYPE B4,≥100 µg/mL
O=[N+]([O-])c1cncnc1N1CC[N+]2(CC1)CC[N+]1(CCN(c3ncncc3[N+](=O)[O-])CC1)CC2,HeLa,B3,>70 µg/mL
Nc1ncnc2c1ncn2[C@@H]1C=C(CCl)[C@@H](O)[C@H]1O,HeLa,TYPE B4,>40 µg/mL
COCc1ccc(CCCOc2cc(C)c(-c3noc(C(F)(F)F)n3)c(C)c2)nn1,HeLa,-,0.033–0.659 µg/mL
OC[C@H]1O[C@@H](c2cncc(Br)c2)[C@@H](O)[C@H]1O,HeLa,TYPE B4,≥100 µg/mL
C=C(N=CC)c1nc(-c2ccc(OC)cc2)n(C2O[C@H](CO)[C@@H](O)[C@H](O)[C@H]2O)n1,VERO,TYPE B4,>200 µg/mL
O=[N+]([O-])c1c(N2CC[N+]3(CC2)CC[N+]2(CCNCC2)CC3)ncnc1N1CC[N+]2(CC1)CC[N+]1(CCN(c3ncnc(N4CC[N+]5(CC4)CC[N+]4(CCNCC4)CC5)c3[N+](=O)[O-])CC1)CC2,HeLa,B3,>70 µg/mL
Cc1ccc(CCCOc2c(C)cc(C#N)cc2C)o1,HeLa,-,0.033–0.659 µg/mL
CC1(CO)CCC(Cn2cnc3c(N)nc(N)nc32)C1(C)C,VERO,TYPE B4,>40 µg/mL
NC(=O)c1cncc([C@H]2O[C@H](CO)[C@@H](O)[C@@H]2O)c1,VERO,TYPE B4,≥100 µg/mL
CC1(C)[C@@H](CO)CC[C@@]1(C)Cn1cc(Br)c(=O)[nH]c1=O,HeLa,TYPE B4,>400 µg/mL
N#Cc1cncc([C@H]2O[C@H](CO)[C@H](O)[C@@H]2O)c1,HeLa,TYPE B4,≥100 µg/mL
CC1(C)[C@@H](CO)CC[C@@]1(C)Cn1ccc(=O)[nH]c1=O,HeLa,TYPE B4,>400 µg/mL
CC=NC(=N)c1nc(-c2ccc(OC)cc2)n(Cc2ccccc2)n1,VERO,TYPE B4,>10 µg/mL
CON=C[C@H]1O[C@@H](n2cnc3c(N)ncnc32)[C@H](O)[C@@H]1O,HeLa,B4,>200 µg/mL
CC1(C)[C@@H](CCO)C[C@H]1n1nnc2c(=O)[nH]c(N)nc21,VERO,TYPE B4,>400 µg/mL
COCc1ccc(CCCOc2c(C)cc(-c3noc(C(F)F)n3)cc2C)nn1,HeLa,-,0.033–0.659 µg/mL
CC1(CO)CCC(Cn2cnc3c(Cl)nc(N)nc32)C1(C)C,HeLa,TYPE B4,200 µg/mL
CC(C)CS[C@@H]1C=C[C@H](n2cnc3c(N)ncnc32)C1,HeLa,TYPE B4,>3.2 µg/mL
Nc1ncnc2c1ncn2[C@@H]1O[C@H](/C=N/O)C[C@H]1O,VERO,Strain B4,>400 µg/mL
OC[C@H]1O[C@@H](n2c(SCc3ccccn3)nc3cc(Cl)c(Cl)cc32)[C@H](O)[C@@H]1O,HEL,B4,>50 µg/mL

Repeating the first 7 entries:

structure | cells | strain | value
CC1(CO)CCC(Cn2nnc3c(N)nc(N)nc32)C1(C)C | HeLa | TYPE B4 | 300 µg/mL
C=C(N=CC)c1nc(-c2cccc(C)c2)n([C@@H]2O[C@H](CO)[C@@H](O)[C@H]2O)n1 | HeLa | TYPE B4 | >200 µg/mL
Nc1ncnc2c1ncn2C[C@H](O)CO | VERO | Strain B4 | >400 µg/mL
Cc1cc(OCCCc2ccc(Cl)nn2)cc(C)c1-c1noc(C(F)(F)F)n1 | HeLa | - | 0.033–0.659 µg/mL
OC[C@H]1O[C@H](c2cncc(Br)c2)[C@@H](O)[C@@H]1O | VERO | TYPE B4 | ≥100 µg/mL
CC1(C)[C@@H](CCO)C[C@H]1n1nnc2c(=O)[nH]cnc21 | VERO | TYPE B4 | >100 µg/mL
Cc1cc(OCCCc2ccc(C(F)(F)F)nn2)cc(C)c1-c1noc(C(F)F)n1 | HeLa | - | 0.033–0.659 µg/mL